# Patent US20240109955A1 (published 2024)
# Positions count from the first letter of the chain named.
# B1: MX828 (bispecific antibody)
# chain: QTVVTQEPSFSVSPGGTVTLTCGLSSGSVSTAYFPSWYQQTPGQAPRTLIYGTNTRSSGVPDRFSGSILGNKAALTITGAQADDESDYYCVLYMGRGIVVFGGGTKLTVLGGSSGEIVLTQSPGTLSLSPGERATLSCRASQSVSSSYLAWYQQKPGQAPRLLIYSASSRATGIPDRFSGSGSGTDFTLTISRLEPEDFAVYFCQQYVGLTGWTFGQGTKVEIKGGGGSGGSGSGGGGSASGSGQMQLVQSGPEVKKPGTSVKVSCKASGFTFTSSAVQWVRQRQRLEWIGWIVVGSGNTNYAQKFQERVTITRDMSTSTAYMELSSLRSEDTAVYYCAAPNCSNVVCYDGFDIWGQGTMVTVSSGGSSGQVQLVESGGGVVQPGRSLRLSCAASGFTLSSYGMHWVRQAPGKGLEWVAVISYDGSNKYYVDSVKGRFTISRDNSKNTLYLQMNSLRAEDTAVYYCRWAYWELLPDYYYGMDVWGQGTTVTVSSASGGSGDKTHTCPPCPAPELLGGPSVFLFPPKPKDTLMISRTPEVTCVVVDVSHEDPEVKFNWYVDGVEVHNAKTKPREEQYNSYVVSVLTVLHQDWLNGKEYKCKVSNKALPAPIEKTISKAKGQPREPQVYTLPPSRDELTKNQVSLTCLVKGFYPSDIAVEWESNGQPENNYKTTPPVLDSDGSFFKKLTVDKSRWQQGNVFSCSVLHEALHSHYTQKSLSLSPG
# B2: MX830 (bispecific antibody)
# chain: B1 chain with V208G
# B3: MX829 (bispecific antibody)
# chain: DIQMTQSPSSVSASVGDRVIITCRASQGISSWLAWYQQKPGKAPKVLIYDASSLQSGVPSRFSGSGYGTDFTLTISSLQPEDSATYYCQQAKSFPITFGQGTRLEIKGGSSGEIVLTQSPGTLSLSPGERATLSCRASQSVSSSYLAWYQQKPGQAPRLLIYSASSRATGIPDRFSGSGSGTDFTLTISRLEPEDFAVYFCQQYVGLTGWTFGQGTKVEIKGGGGSGGSGSGGGGSASGSGQMQLVQSGPEVKKPGTSVKVSCKASGFTFTSSAVQWVRQRQRLEWIGWIVVGSGNTNYAQKFQERVTITRDMSTSTAYMELSSLRSEDTAVYYCAAPNCSNVVCYDGFDIWGQGTMVTVSSGGSSGQVQLVESGGGVVQPGRSLRLSCAASGFTFSSYAFHWVRQAPGKGLEWVAVISYDGSNQYYADSVKGRFTISRDNSKNTLYLQMNSLRADDTAVYYCARDLAIAVAGTWHYYNGMDVWGQGTTVTVSSASGGSGDKTHTCPPCPAPELLGGPSVFLFPPKPKDTLMISRTPEVTCVVVDVSHEDPEVKFNWYVDGVEVHNAKTKPREEQYNSYVVSVLTVLHQDWLNGKEYKCKVSNKALPAPIEKTISKAKGQPREPQVYTLPPSRDELTKNQVSLTCLVKGFYPSDIAVEWESNGQPENNYKTTPPVLDSDGSFFKKLTVDKSRWQQGNVFSCSVLHEALHSHYTQKSLSLSPG
# B4: MX831 (bispecific antibody)
# chain: B3 chain with V205G
# B5: MX834 (other)
# chain 1: B1 chain with S632C, T644W
# chain 2: B1 chain with S632C, T644W
# Biological target: SARS-CoV-2 spike protein, Omicron sublineage BA.2.12.1 (SARS-CoV-2, UniProt P0DTC2 14-1273)
# Test: cell-based or functional assay
Binder,"IC50, pseudovirus neutralization [nM]","IC80, pseudovirus neutralization [nM]"
B1,43,75
B2,62.7,94.3
B3,3.96,8.4
B4,38,42.9

# Biological target: SARS-CoV-2 spike protein, Omicron sublineage BA.2 (SARS-CoV-2, UniProt P0DTC2 14-1273)
# Test: cell-based or functional assay
Binder,"IC50, pseudovirus neutralization [nM]","IC80, pseudovirus neutralization [nM]"
B1,13.7,20.3
B2,9.41,10.8
B3,3.58,6.06
B4,0.03,0.08

# Biological target: SARS-CoV-2 spike (S) protein, Omicron sublineage BA.2.12.1 (SARS-CoV-2, UniProt P0DTC2 14-1273)
# Test: cell-based or functional assay
Binder,"IC50, pseudovirus neutralization [nM]","IC80, pseudovirus neutralization [nM]"
B5,4.62,12.1
